Anti-infective test results gathered from many reports (values: NIAID ChemDB through PubChem).

Common to all: toxicity to cultured cells; cells: HFF; measure: CC50

CCn: concentration that lowers growth or viability of the cells by n%. An empty or dashed field is not shown. Conditions beyond the fields shown may differ between rows.

structure	method	result
Nc1ccn([C@@]23C[C@H](O)[C@@H](CO)[C@@H]2C3)c(=O)n1		>100 µg/mL
COC(=O)[C@H](C)NP(=O)(OCC1C/C1=C/n1cnc2c(=O)[nH]c(N)nc21)Oc1ccccc1		>100 µM
Nc1nc2c(ncn2COCCO)c(=O)[nH]1	visual reading	14 µM
OCCOCn1c(=S)[nH]c2c(Cl)c(Cl)ccc21	visual reading	>100 µM
O=C(Nc1ccc(NC(=S)Nc2cc(C(F)(F)F)cc(C(F)(F)F)c2)cc1)c1cscn1	MTS	≥10 µg/mL
O=c1[nH]c(=O)n([C@@H]2O[C@H](CO)[C@@H](O)[C@@H]2F)cc1I	visual reading	0.13 µM
O=C(Nc1ccc(NC(=S)Nc2ccc(F)c(Cl)c2)cc1)c1ccco1	MTS	≥10 µg/mL
Nc1ncnc2c1ncn2[C@H]1C[C@]12C[C@H]2CO		100 µM
OCCOCn1c(=S)[nH]c2c(Cl)cc(Cl)cc21	visual reading	>100 µM
OC[C@H]1O[C@@H](n2c(Br)nc3cc(Cl)c(Cl)cc32)C[C@@H]1O	visual reading	50 µM
Nc1nc2cc(Cl)c(Cl)cc2n1COCCO	visual reading	>100 µM
Nc1ccn(C[C@@H](CO)OCP(=O)(O)O)c(=O)n1		>317 µM
Nc1nc2c(ncn2COCCO)c(=O)[nH]1	neutral red	>100 µg/mL
Nc1ncnc2c1c(I)cn2COCCO		100 µM
COc1cc(OC)c(NC(=S)Nc2cc(OC)c(NC(=O)c3ccco3)cc2OC)cc1Cl	MTS	≥10 µg/mL
CCO[C@@H]1[C@@H](OCC)[C@H](Cc2ccccc2)O[C@@H]2CO[C@@H](c3ccc(Cl)cc3)O[C@@H]12		>100 µg/mL
OCCOCn1c(Cl)nc2cc(Cl)c(Cl)cc21	visual reading	>320 µM
Oc1cc(Cl)ccc1Oc1ccc(N2CCOCC2)cc1		>10 µM
CCCCCCCCCCCCCCCCOP1(=O)CO[C@@H](Cn2ccc(N)nc2=O)CO1		83 µM
Nc1nc2c(ncn2C=C2CC2CO)c(=O)[nH]1		279 µM
Cc1cc(NC(=O)c2ccc(Oc3ccc(Cl)cc3O)o2)no1		>10 µM
CCCCCCCCCCCCCCCCCOC[C@H](COP1(=O)CO[C@@H](Cn2ccc(N)nc2=O)CO1)OCc1ccccc1		77 µM
O=C(Nc1ccc(NC(=S)Nc2ccccc2)cc1)c1ccco1	MTS	≥10 µg/mL
Cn1ncc2c3cc(Cl)c(Cl)cc3n([C@@H]3O[C@H](CO)[C@@H](O)[C@H]3O)c21	visual reading	10 µM
OC[C@H]1O[C@@H](n2c(Br)nc3cc(Cl)c(Cl)cc32)[C@H](O)[C@@H]1O		188 µM
OCCOCn1c(=S)[nH]c2cc(Cl)c(Cl)cc21	visual reading	>100 µM
O=C(c1ccc(Oc2ccc(Cl)cc2O)s1)N1CCNCC1		>10 µM
O=c1[nH]c(=O)n([C@H]2C[C@H](O)[C@@]3(CO)CC23)cc1Br		>200 µM
CC(=O)Nc1n[nH]c(=O)c2c1ncn2[C@@H]1O[C@H](CO)[C@@H](O)[C@H]1O		>100 µM
O[C@@H]1[C@H](O)[C@H](O)CO[C@H]1n1c(Br)nc2cc(Cl)c(Cl)cc21	neutral red	152 µM
Nc1nc(F)c2ncn(/C=C3/CC3(CO)CO)c2n1	neutral red	>377 µM
CCCCCCCCCCCCCCCCCCOCCCOP1(=O)CO[C@@H](Cn2ccc(N)nc2=O)CO1		77 µM
CNC(=O)c1ccc(Oc2ccc(Cl)cc2O)o1		>10 µM
OC[C@H]1O[C@@H](n2c(SCc3ccccc3)nc3cc(Cl)c(Cl)cc32)C[C@@H]1O	visual reading	>100 µM
Nc1ncnc2ncn(/C=C3/C(F)C3(CO)CO)c12		>300 µM
O=C(NCc1ccc(Cl)cc1)c1c[nH]c2ccc(CCCO)cc2c1=O		>100 µM
COC(=O)[C@H](C)NP(=O)(OC[C@@H]1C[C@]12C[C@@H]2n1cnc2c(N)ncnc21)Oc1ccccc1		100 µM
Oc1cc(Cl)ccc1Oc1ccc(C(F)(F)F)cc1Cl		>10 µM
OC[C@H]1O[C@@H](n2c(Cl)nc3cc(Cl)c(Cl)cc32)C[C@@H]1O	visual reading	>100 µM
Cc1cn([C@@]23C[C@H](O)[C@@H](CO)[C@@H]2C3)c(=O)[nH]c1=O		70.5 µg/mL
O=c1[nH]c(=O)n([C@H]2C[C@H](O)[C@@H](CO)O2)cc1/C=C/Br	visual reading	20 µM
O=C(Nc1ccc(NC(=S)Nc2ccc(C(F)(F)F)c(Cl)c2)cc1)c1ccccn1	MTS	≥10 µg/mL
CN1CCN(c2ccc(Oc3ccc(Cl)cc3O)cc2)CC1		>10 µM
OC[C@H]1O[C@@H](n2c(=S)[nH]c3cc(Cl)c(Cl)cc32)C[C@@H]1O	visual reading	>100 µM
OCCOCn1c(Br)nc2c(Cl)cc(Cl)cc21	visual reading	>100 µM